{"source": "paper PMC8800143", "molecular_target": "SARS-CoV-2 spike S1 alpha variant (B.1.1.7) (SARS-CoV-2)", "test": "BLI"}
{"substance": "Fc-tag tagged human ACE2 (from UniProt Q9BYF1) (Fc fusion)", "values": [{"measurement": "Kd", "result": 0.0208, "unit": "µM"}]}
